For 65 compounds, inhibition results are on record in PubChem BioAssay AID588689 (Southern Research Specialized Biocontainment Screening …, 2011).

The chains behind the UniProt entries cited, without tags or fusion partners.
UniProt P29991, whole entry, looked up: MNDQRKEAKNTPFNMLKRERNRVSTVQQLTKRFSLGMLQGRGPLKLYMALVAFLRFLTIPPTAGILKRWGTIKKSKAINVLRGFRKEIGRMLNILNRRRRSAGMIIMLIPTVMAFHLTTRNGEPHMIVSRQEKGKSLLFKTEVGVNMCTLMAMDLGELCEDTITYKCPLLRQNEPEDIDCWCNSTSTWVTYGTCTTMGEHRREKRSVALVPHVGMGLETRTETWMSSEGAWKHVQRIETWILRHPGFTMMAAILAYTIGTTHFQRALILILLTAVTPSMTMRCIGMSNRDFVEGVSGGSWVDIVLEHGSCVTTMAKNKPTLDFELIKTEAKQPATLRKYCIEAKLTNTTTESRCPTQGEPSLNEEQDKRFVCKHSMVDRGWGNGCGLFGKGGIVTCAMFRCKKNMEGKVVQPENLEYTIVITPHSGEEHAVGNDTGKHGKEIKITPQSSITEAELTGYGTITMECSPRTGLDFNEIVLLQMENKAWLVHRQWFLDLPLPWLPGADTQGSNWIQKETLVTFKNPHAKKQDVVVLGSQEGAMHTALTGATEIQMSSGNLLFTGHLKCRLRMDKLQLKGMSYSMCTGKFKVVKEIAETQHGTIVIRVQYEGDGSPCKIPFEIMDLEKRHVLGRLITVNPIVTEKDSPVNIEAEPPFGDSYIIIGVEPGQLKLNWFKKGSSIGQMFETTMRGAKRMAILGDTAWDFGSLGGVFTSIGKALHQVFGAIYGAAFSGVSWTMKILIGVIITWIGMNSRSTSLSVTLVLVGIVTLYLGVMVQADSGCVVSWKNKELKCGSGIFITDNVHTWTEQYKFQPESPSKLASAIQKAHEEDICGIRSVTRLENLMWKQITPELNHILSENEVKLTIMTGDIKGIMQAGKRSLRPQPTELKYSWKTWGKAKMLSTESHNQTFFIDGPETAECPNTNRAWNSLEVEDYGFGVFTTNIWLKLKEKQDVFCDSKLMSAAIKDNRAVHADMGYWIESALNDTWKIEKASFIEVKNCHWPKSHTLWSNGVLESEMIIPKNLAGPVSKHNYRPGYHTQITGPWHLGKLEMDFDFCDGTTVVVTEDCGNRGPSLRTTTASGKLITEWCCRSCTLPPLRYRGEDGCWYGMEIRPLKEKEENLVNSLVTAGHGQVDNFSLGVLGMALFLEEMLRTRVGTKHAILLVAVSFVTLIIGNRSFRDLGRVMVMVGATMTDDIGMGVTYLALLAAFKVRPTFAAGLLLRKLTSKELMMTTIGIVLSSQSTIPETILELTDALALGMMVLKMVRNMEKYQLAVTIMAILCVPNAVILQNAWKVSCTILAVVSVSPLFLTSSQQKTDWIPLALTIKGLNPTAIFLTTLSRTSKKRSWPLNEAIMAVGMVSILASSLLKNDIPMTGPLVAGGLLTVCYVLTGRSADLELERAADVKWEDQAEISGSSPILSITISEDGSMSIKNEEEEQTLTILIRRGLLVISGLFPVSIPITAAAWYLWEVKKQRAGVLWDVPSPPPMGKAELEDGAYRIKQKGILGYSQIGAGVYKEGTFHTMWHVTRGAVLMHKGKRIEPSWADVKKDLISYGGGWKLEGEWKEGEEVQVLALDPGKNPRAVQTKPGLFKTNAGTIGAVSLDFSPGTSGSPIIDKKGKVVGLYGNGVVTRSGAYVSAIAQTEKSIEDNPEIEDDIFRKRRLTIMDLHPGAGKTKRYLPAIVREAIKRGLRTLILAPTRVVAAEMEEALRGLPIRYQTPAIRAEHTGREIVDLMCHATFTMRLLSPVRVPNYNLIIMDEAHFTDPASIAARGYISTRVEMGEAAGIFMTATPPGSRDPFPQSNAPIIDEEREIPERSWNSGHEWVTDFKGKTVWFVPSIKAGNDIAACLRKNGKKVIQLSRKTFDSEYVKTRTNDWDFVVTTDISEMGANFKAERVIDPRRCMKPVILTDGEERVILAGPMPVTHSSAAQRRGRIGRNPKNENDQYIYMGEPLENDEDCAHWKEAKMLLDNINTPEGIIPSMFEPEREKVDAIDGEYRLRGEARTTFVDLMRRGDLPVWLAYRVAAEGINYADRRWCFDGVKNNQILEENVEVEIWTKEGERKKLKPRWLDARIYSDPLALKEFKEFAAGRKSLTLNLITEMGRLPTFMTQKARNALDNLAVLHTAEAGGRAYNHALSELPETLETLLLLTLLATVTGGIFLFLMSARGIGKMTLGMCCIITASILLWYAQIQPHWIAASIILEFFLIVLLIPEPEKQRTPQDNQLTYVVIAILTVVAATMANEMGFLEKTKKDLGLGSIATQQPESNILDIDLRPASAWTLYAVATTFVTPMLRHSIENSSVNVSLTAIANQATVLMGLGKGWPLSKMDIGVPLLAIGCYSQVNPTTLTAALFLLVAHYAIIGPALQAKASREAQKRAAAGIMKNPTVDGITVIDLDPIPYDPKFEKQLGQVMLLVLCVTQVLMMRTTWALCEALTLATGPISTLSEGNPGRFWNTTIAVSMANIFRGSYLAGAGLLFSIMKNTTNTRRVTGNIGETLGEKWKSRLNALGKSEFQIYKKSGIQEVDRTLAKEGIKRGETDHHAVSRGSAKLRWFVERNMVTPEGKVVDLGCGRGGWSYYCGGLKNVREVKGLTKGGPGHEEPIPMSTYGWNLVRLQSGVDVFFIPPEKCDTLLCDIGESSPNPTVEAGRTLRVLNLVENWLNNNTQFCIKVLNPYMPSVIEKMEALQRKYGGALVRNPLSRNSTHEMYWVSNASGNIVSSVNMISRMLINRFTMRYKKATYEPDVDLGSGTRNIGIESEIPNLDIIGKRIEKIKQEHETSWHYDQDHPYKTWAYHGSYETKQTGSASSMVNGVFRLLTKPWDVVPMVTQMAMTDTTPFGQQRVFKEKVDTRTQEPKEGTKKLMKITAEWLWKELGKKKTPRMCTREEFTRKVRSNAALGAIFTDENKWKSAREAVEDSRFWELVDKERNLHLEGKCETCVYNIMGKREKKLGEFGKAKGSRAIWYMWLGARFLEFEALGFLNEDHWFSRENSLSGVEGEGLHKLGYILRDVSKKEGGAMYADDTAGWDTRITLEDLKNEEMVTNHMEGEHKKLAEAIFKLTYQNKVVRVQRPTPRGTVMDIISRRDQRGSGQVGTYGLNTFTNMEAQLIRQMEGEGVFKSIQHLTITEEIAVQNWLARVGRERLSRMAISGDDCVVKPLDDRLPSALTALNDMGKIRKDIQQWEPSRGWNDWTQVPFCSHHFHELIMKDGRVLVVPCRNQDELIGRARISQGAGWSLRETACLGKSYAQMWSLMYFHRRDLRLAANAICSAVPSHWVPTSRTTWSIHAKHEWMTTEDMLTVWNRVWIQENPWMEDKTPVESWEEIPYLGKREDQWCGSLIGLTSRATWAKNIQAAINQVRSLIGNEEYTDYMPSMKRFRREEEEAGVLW

This is one part of the list. Measured potencies and affinities stand elsewhere. Active and inactive are the calls of the source. Cut-off read from the data, not from the text of the source: inconclusive = inhibition above about 29% without an active follow-up result; inactive = below that.

For this assay, the target named is Genome polyprotein (Dengue virus type 2 (strain 16681-PDK53)) (UniProt P29991). Description: flavivirus cap methylation enzyme inhibition – biochemical, confirmation dose response, primary screen (AID 588689). The settings on record: Dengue-2 NS5 methyltransferase capping enzyme assay, at 25 µM, stronger effect = higher value.
As to `CN(C)C1(CNC(=O)c2ccc(S(C)(=O)=O)cc2)CCCCC1`, the inhibition is inactive: -5.18%.

As for `O=C(/C=C/c1ccccc1)OC1CN2CCC1CC2` (stereo not given), the inhibition was inactive: -10.1%.

As to `CCCC1OP(=O)(Nc2ccccc2)OCC1CC` (stereo not given), the inhibition is inactive: 9.68%.

With `Cc1nn(-c2ccccc2)c2c1P(=O)(N1CCOCC1)N(C)C(c1ccccc1)=N2` (stereo not given), the inhibition was inactive: -2.76%.

Regarding `Cc1ccc(C(=O)OC2CN3CCC2CC3)cc1` (stereo not given), the inhibition was inactive: -9.14%.

As to `CC1CCC(C(C)C)C(OP(=O)(Nc2ccccn2)c2ccccc2)C1` (stereo not given), the inhibition is inactive: -4.65%.

With `Nc1cccc([As](=O)(O)c2ccccc2)c1`, the inhibition is inactive: -8.63%.

Regarding `O=[As](O)(c1cccs1)c1cccs1`, the inhibition was inactive: -7.18%.

As for `Cc1ccc(OCC(=O)OC2CN3CCC2CC3)cc1` (stereo not given), the inhibition was inactive: -3.2%.

Take `NS(=O)(=O)c1cccc(NC(=O)COC(=O)C(O)(c2ccccc2)c2ccccc2)c1`: the inhibition is inactive: -2.22%.

Turning to `O=P1(Nc2ccc(Br)cn2)COc2ccccc2OC1`, the inhibition was inactive: 2.05%.

Turning to `O=P1(Nc2ncccn2)COc2ccccc2OC1`, the inhibition was inactive: -9.41%.

Consider `Clc1n[nH]nc1-c1nn[nH][15n]1`, for which the inhibition is inactive: 0%.

Turning to `O=P1(N(CCCl)CCCl)NCCC(C(F)(F)F)O1` (stereo not given), the inhibition is inactive: 0%.

In the case of `CC(C)(C)C(=O)NC(Sc1ncccn1)C(Cl)(Cl)Cl` (stereo not given), the inhibition is inactive: -7.84%.

With `CCC1=CC2Cc3nc4ccc(Cl)cc4c(N)c3C(C1)C2` (stereo not given), the inhibition was inactive: 4.01%.

In the case of `O=P1(Nc2ccccn2)COc2ccccc2OC1`, the inhibition was inactive: -6.45%.

In the case of `CCOP(=O)(NC(=NC(C)c1ccccc1)NC(C)c1ccccc1)OCC` (stereo not given), the inhibition is inactive: -1.62%.

In the case of `CCOP(=O)(Nc1ccc(C)cn1)OCC`, the inhibition was inactive: 3.3%.

`CN(C(=O)Cc1ccc(Cl)c(Cl)c1)[C@@H]1CCCC[C@H]1N1CCCC1`: the inhibition is inactive: -4.48%.

On to `CC(C)/C=N\N=C(\N)N[N+](=O)[O-]`, for which the inhibition is inactive: -8.58%.

As to `CC1(CBr)Cn2c(nc3ccccc3c2=O)S1` (stereo not given), the inhibition is inactive: -2.14%.

For the compound `COc1ccccc1CNC(=O)COC(=O)C(O)(c1ccccc1)c1ccccc1`, the inhibition is inactive: 10.1%.

Turning to `Cc1cccc(OCC(=O)OC2CN3CCC2CC3)c1` (stereo not given), the inhibition was inactive: -8.19%.

Consider `O=[As](O)(c1cccc(O)c1)c1cccc(O)c1`, for which the inhibition is inactive: -7.91%.

In the case of `O=C(OC1CN2CCC1CC2)c1ccc(Cl)cc1` (stereo not given), the inhibition is inactive: 3.83%.

As to `O=[As](O)(O)c1cccnc1`, the inhibition is inactive: -5.49%.

Turning to `COc1cc(C(=O)NCC2(N3CCOCC3)CCCCC2)cc(Cl)c1OC(C)C`, the inhibition is inactive: 4.37%.

`CS(=O)(=O)c1ccc(Cl)c(NC(=O)COC(=O)C(O)(c2ccccc2)c2ccccc2)c1`: the inhibition was inactive: 3.28%.

Turning to `COc1cc(C2NCCC3(OCCO3)C2(C)C)cc(OC)c1OC` (stereo not given), the inhibition is inactive: 5.74%.

`CCOP(=O)(Nc1cccc2ccccc12)OCC`: the inhibition was inactive: -7.96%.

Regarding `Cc1ccc(NCCc2c([N+](=O)[O-])cc([N+](=O)[O-])cc2[N+](=O)[O-])cc1`, the inhibition was inactive: 7.95%.

For the compound `CCCOP(=S)(Nc1nc(N)cc(=O)[nH]1)OCCC`, the inhibition is inactive: -6.46%.

As for `O=C(O)COc1ccc([As](=O)(O)O)cc1[N+](=O)[O-]`, the inhibition was inactive: -5.88%.

As to `Nc1ccccc1[As](=O)(O)c1ccccc1`, the inhibition was inactive: -15.8%.

Turning to `CCOP1(=S)c2c(C)nn(CCC#N)c2N=C(c2ccccc2F)N1C` (stereo not given), the inhibition was inactive: 0%.

In the case of `O=P(Nc1nccs1)(Oc1ccccc1)Oc1ccccc1`, the inhibition was inactive: 2.73%.

Turning to `O=P(Nc1nccs1)(c1ccccc1)c1nc2ccccc2s1` (stereo not given), the inhibition is inactive: -9.66%.

Take `N#CCCN(C(=O)COC(=O)C(O)(c1ccccc1)c1ccccc1)c1ccc(F)cc1`: the inhibition is inactive: -1.45%.

Consider `CN(C(=O)Cc1ccccc1)[C@@H]1CC[C@]2(CCCO2)C[C@H]1N1CCCC1`, for which the inhibition is inactive: 15.7%.

Consider `CCOP1(=S)c2c(C)nn(CCC#N)c2N=C(c2ccc(F)cc2)N1C` (stereo not given), for which the inhibition is inactive: 0.69%.

`O=[N+]([O-])c1ccc2c(c1)nnn2O`: the inhibition was inactive: -0.8%.

Regarding `CN(C)C(=O)c1cc([N+](=O)[O-])cc2c1-c1c(cc([N+](=O)[O-])cc1[N+](=O)[O-])C2=O`, the inhibition is inactive: -0.78%.

As to `CN(C(=O)Cc1ccc(Cl)c(Cl)c1)[C@H]1CC[C@@]2(CCCO2)C[C@@H]1N1CCCC1`, the inhibition was inactive: -2.2%.

For the compound `NC(=O)Nc1ccc([As](=O)(O)O)cc1`, the inhibition was inactive: -10.2%.

For the compound `Cc1ccc(OP(=O)(Nc2ccc([N+](=O)[O-])cn2)Oc2ccc(C)cc2)cc1`, the inhibition was inactive: 0.68%.

`Cc1ccc2nc3c(c(C)c2c1)CC(C(Cl)Cl)S3` (stereo not given): the inhibition is inactive: -10.8%.

On to `O=[As](O)(c1ccc(O)cc1)c1ccccc1O`, for which the inhibition was inactive: -14.1%.

For `C[As](=O)(O)c1cccc(C(=O)O)c1`, the inhibition is inactive: -6.46%.

Take `COc1cc(C(=O)NCC2(N3CCOCC3)CCCCC2)ccc1OCC(C)C`: the inhibition was inactive: 1.86%.

As to `O=C(OC1CN2CCC1CC2)c1cccc2[nH]cnc12` (stereo not given), the inhibition is inactive: -2.7%.

Take `CCN(CC)C(=S)SC(NC=O)C(Cl)(Cl)Cl` (stereo not given): the inhibition was inactive: -9%.

On to `O=[N+]([O-])c1cc([N+](=O)[O-])c(-c2ccn[nH]2)s1`, for which the inhibition is inactive: 10.7%.

On to `ClCCSc1nnc(-c2cccnc2)o1`, for which the inhibition is inactive: -8.09%.

On to `COC(=O)C1(C)COP(=O)(N2CCCCCC2)OC1` (stereo not given), for which the inhibition is inactive: 10.5%.

For the compound `CC(C)c1ccc(OP(=O)(Nc2ccccn2)Oc2ccccc2F)cc1` (stereo not given), the inhibition was inactive: -9.24%.

`O=P1(N(CCCl)CCCl)OCCCN1CCCl` (stereo not given): the inhibition was inactive: 9.65%.

`O=P1(N(CCCl)CCCl)Nc2ccccc2N1`: the inhibition is inactive: 17.9%.

For `COc1ccc2nc(NP(=O)(c3ccccc3)c3ccccc3)sc2c1`, the inhibition was inactive: 1.56%.

In the case of `COc1cc(I)ccc1[As](=O)(O)O`, the inhibition is inactive: 0%.

`Cc1c2c(nc3ccccc13)SC(C(Cl)Cl)C2` (stereo not given): the inhibition was inactive: -3.64%.

For `O=C(OC1CN2CCC1CC2)C12CC3CC(CC(C3)C1)C2` (stereo not given), the inhibition is inactive: -5.57%.

In the case of `Cc1cc(=O)[nH]c(N[N+](=O)[O-])n1`, the inhibition is inactive: -6.34%.

`O=[N+]([O-])c1cc(Oc2ccc([N+](=O)[O-])cc2C(F)(F)F)cc([N+](=O)[O-])c1`: the inhibition is inactive: 7.26%.

For `COc1ccc(N/C(=N/P(=O)(N2CCOCC2)N2CCOCC2)N2CCOCC2)cc1`, the inhibition is inactive: -7.46%.
